Here are results for 1 substance from patent US20090298774A1.

This test addresses gp41 of HIV-1 IIIB (subtype B, X4) (HIV-1 IIIB). Put plainly: cell-based or functional assay.

On to T1144 (peptide), for which the IC50, HIV-1 IIIB-mediated cell fusion stood at 5.2 nM; the IC50, HIV-1 replication, IIIB (B, X4) is 13 nM; the IC90, HIV-1 IIIB-mediated cell fusion was determined as 10.2 nM; the IC90, HIV-1 replication, IIIB (B, X4) stood at 65.7 nM.
